Laboratory results: PubChem BioAssay AID1224833 (University of Georgia, 2016)
Test: 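Human genes whose knock-down alters rotavirus replication in monkey cells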 (primary screen). Cell system: monkey MA104 kidney cells. Reagent: siRNA pool against human genes, 50 nM. Timing: 48 h knock-down before infection; read 24 h after infection. Conditions: infection with rotavirus strain RV3 two days after transfection; infectious dose for this stage not given. Read-out: 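Rotavirus antigen per well by fluorescent immunoassay, normalised to non-targeting control wells on each plate and given as a standard z-score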. Scale: z-score vs non-targeting control: higher = more rotavirus replication than with non-targeting control. Call rule: In these data the active calls have z-score vs non-targeting control at about -1 or lower, or at about 1 or higher. Meaning of the calls: active = z-score beyond 1 either way; inactive = z-score within 1 of zero.
This is an unselected part of about 12,000 reagents. About 5,600 of all reagents (46%) count as active. 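Active calls cover z-scores past 1 in both directions, so they include lowered as well as raised rotavirus replication.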 Reagent sequences are not shown.

The first 13 entries as a preview:
target	z-score vs non-targeting control	activity call
LCN12 (lipocalin 12)	-2.48	active
RMDN3 (regulator of microtubule dynamics 3)	1.69	active
CRYBG2 (crystallin beta-gamma domain containing 2)	0.298	inactive
RUFY2 (RUN and FYVE domain containing 2)	1.9	active
CNNM1	0.778	inactive
ARF3 (ARF GTPase 3)	-1.61	active
OR5B2 (olfactory receptor family 5 subfamily B member 2)	0.552	inactive
GAGE6 (G antigen 6)	0.547	inactive
SCD (stearoyl-CoA desaturase)	-1.46	active
GADD45GIP1 (GADD45G interacting protein 1)	0.528	inactive
KLHL14 (kelch like family member 14)	-0.234	inactive
MAGEA12 (MAGE family member A12)	-0.666	inactive
SLC35B1	0.176	inactive

The list itself, from the start:
target	z-score vs non-targeting control	activity call
LCN12 (lipocalin 12)	-2.48	active
RMDN3 (regulator of microtubule dynamics 3)	1.69	active
CRYBG2 (crystallin beta-gamma domain containing 2)	0.298	inactive
RUFY2 (RUN and FYVE domain containing 2)	1.9	active
CNNM1	0.778	inactive
ARF3 (ARF GTPase 3)	-1.61	active
OR5B2 (olfactory receptor family 5 subfamily B member 2)	0.552	inactive
GAGE6 (G antigen 6)	0.547	inactive
SCD (stearoyl-CoA desaturase)	-1.46	active
GADD45GIP1 (GADD45G interacting protein 1)	0.528	inactive
KLHL14 (kelch like family member 14)	-0.234	inactive
MAGEA12 (MAGE family member A12)	-0.666	inactive
SLC35B1	0.176	inactive
ATP5ME (ATP synthase membrane subunit e)	0.743	inactive
HNF4G (hepatocyte nuclear factor 4 gamma)	0.808	inactive
MRPS18B (mitochondrial ribosomal protein S18B)	1.28	active
TMEM254 (transmembrane protein 254)	-1.54	active
TMEM151A (transmembrane protein 151A)	0.958	inactive
APCDD1 (APC down-regulated 1)	0.722	inactive
HIVEP3 (HIVEP zinc finger 3)	-1.12	active
PPIH (peptidylprolyl isomerase H)	-0.563	inactive
ADGRD2 (adhesion G protein-coupled receptor D2)	1.49	active
BCAR1 (BCAR1 scaffold protein, Cas family member)	0.245	inactive
ZNF146 (zinc finger protein 146)	-1.87	active
CCDC170 (coiled-coil domain containing 170)	-5.59	active
TMEM97 (transmembrane protein 97)	-1.63	active
ELP6 (elongator acetyltransferase complex subunit 6)	0.511	inactive
NELFCD (negative elongation factor complex member C/D)	-0.401	inactive
ARL1 (ARF like GTPase 1)	-1.06	active
CEP112 (centrosomal protein 112)	-1.33	active
BPIFA3 (BPI fold containing family A member 3)	-0.334	inactive
EXOSC6 (exosome component 6)	1.19	active
GSE1 (Gse1 coiled-coil protein)	-1.77	active
SCT (secretin)	3.25	active
TCEAL8 (transcription elongation factor A like 8)	1.15	active
PGBD1 (piggyBac transposable element derived 1)	0.223	inactive
XG (Xg glycoprotein (Xg blood group))	-1.84	active
GPR107 (G protein-coupled receptor 107)	-1.73	active
HNRNPA2B1 (heterogeneous nuclear ribonucleoprotein A2/B1)	-0.0645	inactive
OR51D1 (olfactory receptor family 51 subfamily D member 1)	-1.02	active
HOXD4 (homeobox D4)	-0.739	inactive
DCST1 (DC-STAMP domain containing 1)	0.459	inactive
SSX4 (SSX family member 4)	-0.649	inactive
RAD9A (RAD9 checkpoint clamp component A)	-0.939	inactive
ABHD17B (abhydrolase domain containing 17B, depalmitoylase)	-2.13	active
NOSIP (nitric oxide synthase interacting protein)	-1.09	active
DEPDC4 (DEP domain containing 4)	-1.46	active
AKAP3 (A-kinase anchoring protein 3)	0.959	inactive
NAT8 (N-acetyltransferase 8 (putative))	1.6	active
SNAPC2 (small nuclear RNA activating complex polypeptide 2)	-0.721	inactive
GSTA4 (glutathione S-transferase alpha 4)	0.941	inactive
RPL38 (ribosomal protein L38)	2.54	active
MTCL3 (MTCL family member 3)	0.447	inactive
KRT77 (keratin 77)	1.62	active
PCYOX1L (prenylcysteine oxidase 1 like)	0.725	inactive
IGFL1 (IGF like family member 1)	-0.234	inactive
IGSF22 (immunoglobulin superfamily member 22)	-1.41	active
CD1A (CD1a molecule)	-0.109	inactive
MMS22L (MMS22 like, DNA repair protein)	1.14	active
TMEM255A (transmembrane protein 255A)	-0.481	inactive
TFAP2C (transcription factor AP-2 gamma)	1.48	active
USP25 (ubiquitin specific peptidase 25)	-0.904	inactive
SDK2 (sidekick cell adhesion molecule 2)	2.12	active
RNMT (RNA guanine-7 methyltransferase)	1.42	active
ATP1B1 (ATPase Na+/K+ transporting subunit beta 1)	0.516	inactive
ZNF609 (zinc finger protein 609)	-0.0317	inactive
NUMBL (NUMB like endocytic adaptor protein)	-0.562	inactive
HSPA8 (heat shock protein family A (Hsp70) member 8)	-1.32	active
TAP2 (transporter 2, ATP binding cassette subfamily B member)	-0.595	inactive
LRRC4B (leucine rich repeat containing 4B)	1.42	active
MEA1 (male-enhanced antigen 1)	1.28	active
TBATA (thymus, brain and testes associated)	-0.704	inactive
NRAP (nebulin related anchoring protein)	-2.88	active
C16orf82 (chromosome 16 open reading frame 82)	-0.529	inactive
ALDH6A1 (aldehyde dehydrogenase 6 family member A1)	-1.35	active
ERP44 (endoplasmic reticulum protein 44)	-1.54	active
OR4D5 (olfactory receptor family 4 subfamily D member 5)	1.7	active
DDHD1 (DDHD domain containing 1)	-0.52	inactive
EIPR1 (EARP complex and GARP complex interacting protein 1)	-1.06	active
RASD1 (ras related dexamethasone induced 1)	-1.95	active
POLR1F (RNA polymerase I subunit F)	0.0256	inactive
SCAI (suppressor of cancer cell invasion)	0.606	inactive
OLFML1 (olfactomedin like 1)	-2.01	active
HID1 (HID1 domain containing)	-0.553	inactive
ZNF638 (zinc finger protein 638)	0.609	inactive
GCFC2 (GC-rich sequence DNA-binding factor 2)	-0.674	inactive
BOP1 (BOP1 ribosomal biogenesis factor)	1.2	active
HAPLN3 (hyaluronan and proteoglycan link protein 3)	0.581	inactive
JPT1 (Jupiter microtubule associated homolog 1)	-0.687	inactive
RPP40 (ribonuclease P/MRP subunit p40)	0.132	inactive
ENC1 (ectodermal-neural cortex 1)	-1.67	active
FOXD1 (forkhead box D1)	0.941	inactive
NDUFA8 (NADH:ubiquinone oxidoreductase subunit A8)	-2.04	active
OR5T3 (olfactory receptor family 5 subfamily T member 3)	-0.691	inactive
PSPC1 (paraspeckle component 1)	-0.142	inactive
LRRC61 (leucine rich repeat containing 61)	-1.54	active
CCNB2 (cyclin B2)	1.6	active
ZNF106 (zinc finger protein 106)	0.351	inactive
AMACR (alpha-methylacyl-CoA racemase)	-0.701	inactive
RGL1 (ral guanine nucleotide dissociation stimulator like 1)	-1.95	active
DCAF12 (DDB1 and CUL4 associated factor 12)	-0.0451	inactive
H2BC8 (H2B clustered histone 8)	-0.715	inactive
VMA12 (vacuolar ATPase assembly factor VMA12)	-1.05	active
ZNF431 (zinc finger protein 431)	0.951	inactive
PDZD8 (PDZ domain containing 8)	0.692	inactive
IL17REL (interleukin 17 receptor E like)	1.11	active
APCDD1L (APC down-regulated 1 like)	1.64	active
ELOVL3 (ELOVL fatty acid elongase 3)	-0.838	inactive
OR10H1 (olfactory receptor family 10 subfamily H member 1)	0.336	inactive
CELF6 (CUGBP Elav-like family member 6)	-0.708	inactive
